Assay results: paper PMC12029531, “Selenium in Action: Exploring the Biological Wonders of Hydroselenite Salts” (Molecules, 2025)

Columns and labels:
Assay in all cases: MIC and MBC, broth micro-dilution
Type in all cases: cell-based
Escherichia coli = conditions: E. coli
Klebsiella pneumoniae = conditions: K. pneumoniae
Pseudomonas aeruginosa = conditions: P. aeruginosa
Staphylococcus aureus = conditions: S. aureus
[1] = test system: Staphylococcus epidermidis; conditions: S. epidermidis

## COc1cc(Cc2cnc(N)nc2N)cc(OC)c1OC [AB-2, trimethoprim]
Escherichia coli
  MBC: 6.25 µg/mL (≈ 21.5 µM)
Escherichia coli; 24 h
  MIC: 1.56 µg/mL (≈ 5.37 µM)
Klebsiella pneumoniae
  MBC: 12.5 µg/mL (≈ 43.1 µM)
Klebsiella pneumoniae; 24 h
  MIC: 6.25 µg/mL (≈ 21.5 µM)
Pseudomonas aeruginosa
  MBC: >200 µg/mL
Staphylococcus aureus
  MBC: 3.13 µg/mL (≈ 10.8 µM)
Staphylococcus aureus; 24 h
  MIC: 1.56 µg/mL (≈ 5.37 µM)
[1]
  MBC: >200 µg/mL
[1]; 24 h
  MIC: >200 µg/mL

In brackets after ≈: the same amount, converted by molar mass.
